Results of unrelated studies side by side (data: NIAID ChemDB).

Common to all: tests in culture; agent: Candida albicans; read by: agar; read-out: MIC

Conditions beyond the fields shown may differ between rows. An empty or dashed field is not shown.

compound | strain or isolate | value
Cc1nnsc1C(=O)NNC(=S)Nc1ccc(F)cc1 | ATCC 90028 | 400 µg/mL
CC1(C)C2CC3OB(C[C@@H](Cc4ccccc4)NC(=O)[C@@H](N)Cc4ccccc4)O[C@]3(C)C1C2 |  | ≤500 µg/mL
COc1ccc(CN2CCN(c3nc(Cl)nc(NC4CC4)n3)CC2)c(OC)c1OC | MTCC 183 | 25 µg/mL
N#Cc1ccc(Nc2nc(Oc3cccc4cccnc34)nc(N3CCN(c4ccccc4)CC3)n2)cc1C(F)(F)F | MTCC 183 | 50 µg/mL
CCOc1nc([N-]OC)c2c(n1)[N+](C)=C=[N+]2C/C=C(\C)CC/C=C(\C)CC/C=C(\C)CCC=C(C)C | ATCC 90028 | 4 µg/mL
O=C(NNC(=S)Nc1ccc(F)cc1)c1cc2ccccc2[nH]1 | ATCC 90028 | >400 µg/mL
COc1ccc(OC)c(C2SCC(=O)N2CCc2ccccc2)c1 | NCIM 3102 | 55 µg/mL
Cn1c(=O)cc(Oc2nc(Nc3ccc(C#N)cc3)nc(Oc3cc(=O)n(C)c4ccccc34)n2)c2ccccc21 | MTCC 183 | 250 µg/mL
O=c1[nH]c(=S)[nH]c(O)c1N=Nc1nc2ccccc2[nH]1 |  | <0.016 µg/mL
N#Cc1ccc(Nc2nc(Oc3cccc4cccnc34)nc(N3CCN(c4cccc(Cl)c4)CC3)n2)cc1C(F)(F)F | MTCC 183 | 12.5 µg/mL
CC(=O)Nc1ccc2nc(NC(=O)CSc3nnc(-c4ccc5ncccc5c4)o3)sc2c1 |  | 50 µg/mL
CC1Oc2ccccc2/C(=N/Nc2ccccc2)C1n1ccnc1 | PTCC 5027 | 8 µg/mL
O=C(CSc1nnc(-c2ccc3ncccc3c2)o1)Nc1nc2ccc(Br)cc2s1 |  | 100 µg/mL
O=C(O)c1n[nH]c2nc3ccccc3n2c1=O |  | <0.016 µg/mL
Clc1ccc(-c2n[nH]c(CN3CCc4sccc4C3)n2)cc1 | NCIM371 | 25 µg/mL
Cn1c(=O)cc(Oc2nc(Nc3ccc(C#N)cc3)nc(Nc3nc4ccccc4s3)n2)c2ccccc21 | MTCC 183 | 500 µg/mL
C[C@@H](NC(=O)[C@@H](N)Cc1ccccc1)[C@@H](Cc1ccccc1)B1OC2CC3CC(C3(C)C)[C@@]2(C)O1 |  | ≤500 µg/mL
Nc1ccccc1Cc1nc(CN2CCc3sccc3C2)n[nH]1 | NCIM371 | 50 µg/mL
CCN1CCN(c2nc(NCCNc3ncnc4c(Br)cc(Br)cc34)nc(NC3CC3)n2)CC1 | MTCC 183 | 100 µg/mL
O=C(CSc1nnc(-c2ccc3ncccc3c2)o1)Nc1ccccc1 |  | 100 µg/mL
Cc1cccnc1N1C(=O)CSC1c1c(C)cccc1C | NCIM 3102 | 40 µg/mL
Brc1cc(Br)c2ncnc(NCCNc3nc(NC4CC4)nc(N4CCC(Cc5ccccc5)CC4)n3)c2c1 | MTCC 183 | 100 µg/mL
CC1(C)CC(=O)C(N=Nc2nc3ccccc3[nH]2)=C(O)C1 |  | <0.016 µg/mL
CC(=O)N1CCC(n2cc(-c3nc(-c4ccc(Cl)cc4)n[nH]3)nn2)CC1 |  | 30 µg/mL
N#Cc1ccc(Nc2nc(Oc3cccc4cccnc34)nc(N3CCN(c4cccc(Cl)c4Cl)CC3)n2)cc1C(F)(F)F | MTCC 183 | 12.5 µg/mL
Brc1cc(Br)c2ncnc(NCCNc3nc(NC4CC4)nc(N4CCN(c5ncccn5)CC4)n3)c2c1 | MTCC 183 | 25 µg/mL
C=C(CC[C@@H](C)C1CCC2C3=C(CC[C@@]21C)[C@@]1(C)CC[C@H](O)CC1C(=O)O3)C(C)C |  | 1.9 µM
COCc1ccc(O)c(N=Nc2nc3ccccc3[nH]2)c1 |  | <0.016 µg/mL
COc1ccc(-c2n[nH]c(-c3cn(C4CCN(C)CC4)nn3)n2)cc1 |  | 30 µg/mL
COc1cccc(OC)c1C1SCC(=O)N1c1ncccc1C | NCIM 3102 | 17 µg/mL
CO[N-]c1nc(Cl)nc2c1[N+](C/C=C(\C)CC/C=C(\C)CC/C=C(\C)CCC=C(C)C)=C=[N+]2C | ATCC 90028 | >16 µg/mL
CC(C)(C)OC(=O)N1CCC(n2cc(-c3nc(-c4ccccc4)n[nH]3)nn2)CC1 |  | 160 µg/mL
CO[N-]c1nc(N(C)C)nc2c1[N+](C/C=C(\C)CC/C=C(\C)CC/C=C(\C)CCC=C(C)C)=C=[N+]2C | ATCC 90028 | 2 µg/mL
CC1(C)C2CC3OB(C[C@@H](CCc4ccccc4)NC(=O)[C@@H](N)CCCCN)O[C@]3(C)C1C2 |  | ≤500 µg/mL
Clc1ccccc1-c1n[nH]c(CN2CCc3sccc3C2)n1 | NCIM371 | 50 µg/mL
CC(=O)N1CCN(c2nc(Cl)nc(NC3CC3)n2)CC1 | MTCC 183 | 25 µg/mL
C[C@@H](B1OC2CC3CC(C3(C)C)[C@@]2(C)O1)[C@@H](Cc1ccccc1)NC(=O)[C@@H](N)CCCCN |  | ≤500 µg/mL
CC1=[N+](C)N(c2ccccc2)C(=O)C1Nc1nc(Nc2ccc(C#N)cc2)nc(Oc2cc(=O)n(C)c3ccccc23)n1 | MTCC 183 | 500 µg/mL
Cc1nnsc1C(=O)NNC(=S)Nc1ccc([N+](=O)[O-])cc1 | ATCC 90028 | 200 µg/mL
O=C(CSc1nnc(-c2ccc3ncccc3c2)o1)Nc1ccc(Br)cc1 |  | 100 µg/mL
CC1CC(C)CN(c2nc(Cl)nc(NC3CC3)n2)C1 | MTCC 183 | 200 µg/mL
CN1CCC(n2cc(-c3nc(-c4ccccc4)n[nH]3)nn2)CC1 |  | 30 µg/mL
N#Cc1ccc2nc(NC(=O)CSc3nnc(-c4ccc5ncccc5c4)o3)sc2c1 |  | 100 µg/mL
Clc1ccc2c(c1)OCC(n1ccnc1)/C2=N\Nc1ccccc1 | PTCC 5027 | 16 µg/mL
CN1CCN(c2nc(Nc3ccc(C#N)c(C(F)(F)F)c3)nc(Oc3cccc4cccnc34)n2)CC1 | MTCC 183 | 100 µg/mL
C(=Nc1nc2ccccc2[nH]1)c1nn(-c2ccccc2)cc1-c1ccccc1 |  | <0.016 µg/mL
O=C1CSC(c2ccccn2)N1c1ccc(Cl)cn1 | NCIM 3102 | 57 µg/mL
CC(C)[C@@H](C)C1OC1[C@@H](C)C1[C@@H](O)C[C@]2(O)C3=CC=C4C[C@@H](O)CC[C@]4(C)C3[C@H](O)C(=O)[C@]12C |  | 3.3 µM
COc1ccc(NC(=O)CSc2nnc(-c3ccc4ncccc4c3)o2)cc1 |  | 50 µg/mL
O=c1[nH]c(O)c(N=Nc2nc3ccccc3[nH]2)c(=O)[nH]1 |  | <0.016 µg/mL
Clc1nc(NC2CC2)nc(N2CCN(c3ncccn3)CC2)n1 | MTCC 183 | 100 µg/mL
OC(Cn1cncn1)(Cn1cncn1)c1ccc(F)cc1F | NCIM3471 | 5 µg/mL
Cn1c(=O)cc(Oc2nc(Nc3ccc(C#N)cc3)nc(Nc3cnccn3)n2)c2ccccc21 | MTCC 183 | >500 µg/mL
COc1ccc2nc(NC(=O)CSc3nnc(-c4ccc5ncccc5c4)o3)sc2c1 |  | 25 µg/mL
COc1ccc(Cc2nc(CN3CCc4sccc4C3)n[nH]2)cc1 | NCIM371 | 50 µg/mL
Cn1c(=O)cc(Oc2nc(Nc3ccc(C#N)cc3)nc(Sc3nnc(-c4ccncc4)o3)n2)c2ccccc21 | MTCC 183 | 200 µg/mL
Cc1[nH]n(-c2ccccc2)c(=O)c1N=Nc1nc2ccccc2[nH]1 |  | <0.016 µg/mL

For reference, 8 entries again:

Cc1cccnc1N1C(=O)CSC1c1c(C)cccc1C ; strain or isolate: NCIM 3102 ; value: 40 µg/mL
CC(=O)N1CCC(n2cc(-c3nc(-c4ccc(Cl)cc4)n[nH]3)nn2)CC1 ; value: 30 µg/mL
Cc1nnsc1C(=O)NNC(=S)Nc1ccc([N+](=O)[O-])cc1 ; strain or isolate: ATCC 90028 ; value: 200 µg/mL
Cn1c(=O)cc(Oc2nc(Nc3ccc(C#N)cc3)nc(Oc3cc(=O)n(C)c4ccccc34)n2)c2ccccc21 ; strain or isolate: MTCC 183 ; value: 250 µg/mL
O=C(NNC(=S)Nc1ccc(F)cc1)c1cc2ccccc2[nH]1 ; strain or isolate: ATCC 90028 ; value: >400 µg/mL
CCN1CCN(c2nc(NCCNc3ncnc4c(Br)cc(Br)cc34)nc(NC3CC3)n2)CC1 ; strain or isolate: MTCC 183 ; value: 100 µg/mL
Clc1ccc2c(c1)OCC(n1ccnc1)/C2=N\Nc1ccccc1 ; strain or isolate: PTCC 5027 ; value: 16 µg/mL
CN1CCN(c2nc(Nc3ccc(C#N)c(C(F)(F)F)c3)nc(Oc3cccc4cccnc34)n2)CC1 ; strain or isolate: MTCC 183 ; value: 100 µg/mL